Measured values from several laboratories, pooled; numbers as filed in NIAID ChemDB.

Common to all: growth or infection tests; species: Mycobacterium fortuitum; read-out: MIC

Lines come from different laboratories, so protocols vary. Blank or dashed fields: not listed here. a–b is a range or a potency band.

| structure | strain or isolate | method | setting | result |
|---|---|---|---|---|
| CC1COc2c(N3CCN(C)CC3)c(F)cc3c(=O)c(C(=O)O)cn1c23 | 10 strains | - | - | 1 µg/mL |
| CN1C(=O)C(=O)N(C)C1=[Se] | CA10 | - | - | 25 µg/mL |
| COc1c(N2CC(C)NC(C)C2)c(F)cc2c(=O)c(C(=O)O)cn(C3CC3)c12 | ATCC 6841 | - | - | 0.06 µg/mL |
| Nc1nc(N)c2c(n1)NC(c1ccc(C(F)(F)F)cc1)CC(c1ccc3c(c1)OCO3)=N2 | MNT1073 | MTT / broth dilution / absorbance | clinical isolate | >32 µg/mL |
| NC1CCN(c2nc3c(cc2F)c(=O)c(C(=O)O)cn3-c2ccc(F)cc2F)C1 | ATCC 6841 | - | - | 4 µg/mL |
| CC1(C)N=C([Se])NC1=O | CA10 | - | - | 6 µg/mL |
| CN[C@@H]1[C@@H](O)[C@@H](O[C@@H]2[C@@H](O)[C@H](O[C@H]3O[C@H](CN)CC[C@H]3N)[C@@H](N)C[C@H]2N)OC[C@]1(C)O | ATCC 6841 | - | - | 16 µg/mL |
| CCOc1c(N2CCNCC2)c(F)cc2c(=O)c(C(=O)O)cn(C3CC3)c12 | ATCC 6841 | - | - | 0.06 µg/mL |
| CN1CCN(c2cc3c(cc2F)c(=O)c(C(=O)O)cn3-c2ccc(F)cc2)CC1 | 10 strains | - | - | 2 µg/mL |
| CCN1CCN(c2c(F)cc3c(=O)c(C(=O)O)cn(C4CC4)c3c2C(F)(F)F)CC1 | ATCC 6841 | - | - | 1 µg/mL |
| Nc1nc(N)c2c(n1)NC(c1ccc(Cl)cc1)CC(c1ccc3c(c1)OCO3)=N2 | MNT1073 | MTT / broth dilution / absorbance | clinical isolate | >32 µg/mL |
| Cn1ccn(C)c1=[Se] | CA10 | - | - | >100 µg/mL |
| CC(C)(C)c1ccc(/C=N/N=C(\N)c2ccccn2)cc1 | - | - | - | 6–12.5 µg/mL |
| CCn1cc(C(=O)O)c(=O)c2cc(F)c(N3CCNCC3)nc21 | 10 strains | - | - | 8 µg/mL |
| N[C@@H]1CONC1=O | - | - | - | ≥1000 µg/mL |
| N/C(=N\N=C\c1ccccn1)c1ccccn1 | - | - | - | >50 µg/mL |
| CCn1cc(C(=O)O)c(=O)c2cc(F)c(N3CC(C)NC(C)C3)nc21 | ATCC 6841 | - | - | 0.5 µg/mL |
| CN[C@@H]1[C@H](O)[C@H](NC)[C@H]2O[C@@]3(O)C(=O)C[C@@H](C)O[C@H]3O[C@@H]2[C@H]1O | ATCC 6841 | - | - | >64 µg/mL |
| COc1cc(O)cc(/C=C/c2cc3ccccc3s2)c1 | - | broth dilution | - | 16 µg/mL |
| CCN1CCN(c2nc3c(cc2F)c(=O)c(C(=O)O)cn3CC)CC1 | ATCC 6841 | - | - | 0.5 µg/mL |
| Nc1nc(N)c2c(n1)NC(c1ccc(F)cc1)CC(c1ccc3c(c1)OCO3)=N2 | MNT1073 | MTT / broth dilution / absorbance | clinical isolate | >32 µg/mL |
| COc1c(N2CCC(N)C2)c(F)cc2c(=O)c(C(=O)O)cn(C3CC3)c12 | ATCC 6841 | - | - | 0.06 µg/mL |
| N/C(=N\N=C\c1cccc2ccccc12)c1ccccn1 | - | - | - | 12.5–25 µg/mL |